Measured values from several laboratories, pooled; numbers as filed in NIAID ChemDB.

Common to all: growth or infection tests; agent: Mycobacterium smegmatis; measure: inhibition

An empty or dashed field is not shown.

structure | method | strain | tested at | result
Cc1ccc(-c2nc(C)c(-c3cn4cc(Br)ccc4n3)s2)cc1 | broth dilution / absorbance | mc2155 | 30 µM | 4.7%
CCC(C)NCCNC(C)CC | - | ATCC 607 | 125 µg/mL | 100%
O=C1NC(=S)S/C1=C/c1ccc(-c2cccc(C(F)(F)F)c2)o1 | broth dilution / turbidity | - | 1 µM | 72%
CC(C)C(C)NCCNC(C)C(C)C | - | ATCC 607 | 250 µg/mL | 0%
Cc1nc(-c2ccc(F)cc2)sc1-c1cn2ccccc2n1 | broth dilution / absorbance | mc2155 | 30 µM | 29.5%
CCOC(=O)c1nn(-c2ccccc2)c(-c2ccc(Cl)cc2)c1C | agar | mc2155 | 30 µM | 22.7%
CC(C)(C)NCCCNC(C)(C)C | - | ATCC 607 | 1000 µg/mL | 0%
C=C/C(C)=C/[C@@]1(C)SC(=O)C(C)=C1O | - | mc2155 | 75 µg/mL | 86%
CCCC(CCC)NCCNC(CCC)CCC | - | ATCC 607 | 60 µg/mL | 100%
N#Cc1c(NC(=O)c2ccc(Cl)cc2)oc(-c2ccccc2)c1-c1ccccc1 | resazurin | - | 50 µg/mL | 25%
Cc1nc(-c2ccccc2)sc1-c1cn2cc(Br)ccc2n1 | broth dilution / absorbance | mc2155 | 30 µM | 55.6%
Cc1c(C(=O)NNC(=O)c2ccncc2)nn(-c2ccc(Cl)cc2Cl)c1-c1ccccc1 | agar | mc2155 | 30 µM | 1.362%
Cc1nc(-c2ccccc2)sc1-c1cn2cc(Cl)ccc2n1 | broth dilution / absorbance | mc2155 | 30 µM | 9.8%
Cc1c(C(=O)O)nn(-c2ccc(Cl)cc2Cl)c1-c1ccccc1 | agar | mc2155 | 30 µM | 15.73%
CC(C)N(CCN(C(C)C)C(C)C)C(C)C | - | ATCC 607 | 1000 µg/mL | 0%
Cc1ccc(-c2nc(C)c(-c3cn4cc(Cl)ccc4n3)s2)cc1 | broth dilution / absorbance | mc2155 | 30 µM | 4.4%

A second listing of 2 rows from above:

structure	method	strain	tested at	result
Cc1nc(-c2ccccc2)sc1-c1cn2cc(Br)ccc2n1	broth dilution / absorbance	mc2155	30 µM	55.6%
Cc1c(C(=O)NNC(=O)c2ccncc2)nn(-c2ccc(Cl)cc2Cl)c1-c1ccccc1	agar	mc2155	30 µM	1.362%

Conditions beyond the fields shown may differ between rows. Inhibition is in % at the dose shown (toxicity tests: loss of growth or viability).